Molecules are shown by their SMILES.

The series deals with 8 human ZIKV strains (PAN2016, R116265, PAN2015, FLR, R103451, PRVABC59, PLCal_ZV, IbH 30656). It is filed as cell-based, Zika virus. The settings on record: CC50 Vero E6 / average IC50 (human strains). How it is done:
After removal of the unbound compounds by centrifugation (after addition of 3% PEG-6000), ZIKV was incubated with Vero E6 cells in 24-well plates at 37°C for 1 h. The cells were then washed with PBS, overlaid with DMEM containing 1% carboxymethyl cellulose and 2% FBS, and cultured at 37°C for 4–5 days, followed by being stained with 0.5% crystal violet. […] Plaques in each well were calculated, and IC50 of compounds for each compound was calculated using the CalcuSyn computer program.
`Cc1cc2c(C(C)C)c(O)c(O)c3c2c(c1-c1c(C)cc2c(C(C)C)c(O)c(O)c4c2c1OC4N)OC3N` (stereo not shown) [ST069299]: the SI is given as 8.6.

Turning to `Cc1cc2c(C(C)C)c(O)c(O)c(/C=N/NC(=O)C(C)C)c2c(O)c1-c1c(C)cc2c(C(C)C)c(O)c(O)c(/C=N/NC(=O)C(C)C)c2c1O` [ST086273], the SI is on record as 9.2.

`Cc1cc2c(C(C)C)c(O)c(O)c(/C=N/n3c(=O)[nH][nH]c3=O)c2c(O)c1-c1c(C)cc2c(C(C)C)c(O)c(O)c(/C=N/n3c(=O)[nH][nH]c3=O)c2c1O` [ST087010]: the SI was 17.1.

Regarding `Cc1cc2nc[nH]c2c(/N=C/c2c(O)c(O)c(C(C)C)c3cc(C)c(-c4c(C)cc5c(C(C)C)c(O)c(O)c(/C=N/c6c(C)c(C)cc7nc[nH]c67)c5c4O)c(O)c23)c1C` [ST092971], the SI is 10.9.
